Measurements: PubChem BioAssay (NCATS)
Several values for one entry are separate records, joined by “and”; a condition that tells them apart may be missing. Equal values may be shown once. The entries are a selection whose mix differs from that of the whole data set. Results filed as inconclusive are left out. Activity calls are given as the source filed them. Unless noted, the call rests on the fitted dose curve; in most records, active means well fitted curve in the direction sought with a large enough effect; inconclusive means small, poorly fitted or top-dose-only effect, or another doubt; inactive means no such curve, though single readings can be large; an effect the other way counts as inactive or inconclusive.

Protein sequences, listed by entry. Tags and fused reporters are not part of them. Lines headed by an entry give the natural chain unless they say otherwise; changes in a name come on top.
UniProt P13267: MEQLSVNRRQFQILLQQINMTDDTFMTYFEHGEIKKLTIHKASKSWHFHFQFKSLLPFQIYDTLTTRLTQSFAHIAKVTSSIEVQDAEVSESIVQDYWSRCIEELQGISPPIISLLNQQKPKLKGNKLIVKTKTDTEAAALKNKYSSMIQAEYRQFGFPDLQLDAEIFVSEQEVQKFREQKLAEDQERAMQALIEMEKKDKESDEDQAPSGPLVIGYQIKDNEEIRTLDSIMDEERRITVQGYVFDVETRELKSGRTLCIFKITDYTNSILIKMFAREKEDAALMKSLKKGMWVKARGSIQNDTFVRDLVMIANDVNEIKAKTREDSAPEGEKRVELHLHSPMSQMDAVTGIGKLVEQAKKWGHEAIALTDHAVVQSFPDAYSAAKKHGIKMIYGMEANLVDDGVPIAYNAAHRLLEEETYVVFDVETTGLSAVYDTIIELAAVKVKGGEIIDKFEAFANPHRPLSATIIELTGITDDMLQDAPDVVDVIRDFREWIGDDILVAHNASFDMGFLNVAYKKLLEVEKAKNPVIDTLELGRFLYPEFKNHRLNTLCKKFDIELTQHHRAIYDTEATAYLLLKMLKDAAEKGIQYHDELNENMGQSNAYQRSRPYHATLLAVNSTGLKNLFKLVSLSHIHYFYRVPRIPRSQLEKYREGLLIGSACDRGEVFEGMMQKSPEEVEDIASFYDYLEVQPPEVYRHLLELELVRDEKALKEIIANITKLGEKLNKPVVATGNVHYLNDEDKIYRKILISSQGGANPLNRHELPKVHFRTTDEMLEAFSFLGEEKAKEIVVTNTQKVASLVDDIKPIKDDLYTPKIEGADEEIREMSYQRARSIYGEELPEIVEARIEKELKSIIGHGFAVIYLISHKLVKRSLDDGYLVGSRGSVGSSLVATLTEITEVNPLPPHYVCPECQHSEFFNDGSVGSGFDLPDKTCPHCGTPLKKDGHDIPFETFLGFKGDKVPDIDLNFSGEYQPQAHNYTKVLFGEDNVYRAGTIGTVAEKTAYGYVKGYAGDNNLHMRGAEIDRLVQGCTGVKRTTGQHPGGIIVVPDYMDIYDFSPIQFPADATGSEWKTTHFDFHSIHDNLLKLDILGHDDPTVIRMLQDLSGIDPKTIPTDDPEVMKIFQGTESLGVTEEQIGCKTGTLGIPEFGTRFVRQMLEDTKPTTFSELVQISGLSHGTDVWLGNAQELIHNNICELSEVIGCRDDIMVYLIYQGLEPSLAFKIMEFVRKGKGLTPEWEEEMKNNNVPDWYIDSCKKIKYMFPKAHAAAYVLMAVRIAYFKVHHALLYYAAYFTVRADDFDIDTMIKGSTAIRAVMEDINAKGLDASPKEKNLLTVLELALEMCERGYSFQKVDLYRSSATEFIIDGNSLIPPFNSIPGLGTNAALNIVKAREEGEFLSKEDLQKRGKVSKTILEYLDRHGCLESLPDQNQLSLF
UniProt Q99816: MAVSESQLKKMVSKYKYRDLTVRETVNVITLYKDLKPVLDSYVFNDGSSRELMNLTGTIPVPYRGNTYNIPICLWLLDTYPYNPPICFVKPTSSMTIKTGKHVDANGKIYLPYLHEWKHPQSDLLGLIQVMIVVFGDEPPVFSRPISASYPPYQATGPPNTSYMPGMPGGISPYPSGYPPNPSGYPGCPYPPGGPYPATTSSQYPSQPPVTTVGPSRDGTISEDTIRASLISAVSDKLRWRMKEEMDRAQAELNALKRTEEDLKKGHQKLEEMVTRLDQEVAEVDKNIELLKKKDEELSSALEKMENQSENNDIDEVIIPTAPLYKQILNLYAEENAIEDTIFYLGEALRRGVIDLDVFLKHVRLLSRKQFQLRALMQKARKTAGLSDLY
UniProt P09992: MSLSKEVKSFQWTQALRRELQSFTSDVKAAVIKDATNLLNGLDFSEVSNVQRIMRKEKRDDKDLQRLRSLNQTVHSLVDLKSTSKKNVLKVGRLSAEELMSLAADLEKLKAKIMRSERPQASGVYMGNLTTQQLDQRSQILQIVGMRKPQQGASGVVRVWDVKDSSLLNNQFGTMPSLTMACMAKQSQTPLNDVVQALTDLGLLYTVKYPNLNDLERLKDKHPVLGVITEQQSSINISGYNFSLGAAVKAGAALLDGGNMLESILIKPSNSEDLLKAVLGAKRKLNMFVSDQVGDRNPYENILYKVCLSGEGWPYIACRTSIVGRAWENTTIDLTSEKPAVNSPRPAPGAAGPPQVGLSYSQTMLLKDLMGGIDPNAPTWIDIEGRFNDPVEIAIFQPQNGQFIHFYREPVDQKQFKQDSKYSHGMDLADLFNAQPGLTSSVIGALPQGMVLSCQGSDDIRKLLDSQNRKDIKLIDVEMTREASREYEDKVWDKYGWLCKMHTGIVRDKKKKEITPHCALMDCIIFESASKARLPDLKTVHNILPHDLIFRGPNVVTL

Key:
[1] = system: Zika virus NS2B-NS3 protease (unlinked complex); test: Primary screen GU Rhodamine qHTS for Zika virus inhibitors: Unlinked NS2B-NS3 protease assay (AID 1347159); details: Recombinant ZIKV NS2B-NS3 protease, Rhodamine110 substrate fluorescence; at 107 µM (top of the series); further: on the % scale 0 is the no-effect control and ±100 the full control effect; nearly all actives have a fitted effect of over 60% in size
How it was run: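 Enzyme 25 nM in Tris-HCl pH 8.0 + 0.01% Tween 20; compounds up to 114 microM, 15 min RT dark; + Rhod110 substrate 1.5 microM; read t0 and 15 min; delta fluorescence → % inhibition → 4-parameter Hill fit.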

[2] = system: Zika virus NS2B-NS3 protease (linked construct); test: Primary screen NINDS Rhodamine qHTS for Zika virus inhibitors (AID 1347160); details: purified NS2B-NS3 protease, Rhodamine110 substrate fluorescence; activity change, negative = inhibition: at 57.1 µM (top of the series); further: nearly all actives have a fitted effect of over 55% in size; on activity change, negative = inhibition: on the % scale 0 is the no-effect control and ±100 the full control effect
How it was run: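 Enzyme (25 nM, linked NS2B-NS3) was preincubated 15 min with compound in 10 mM Tris-HCl pH 8.0, 0.01% Tween 20. Rhodamine110 substrate (1.5 microM) was then added and fluorescence read at start and after 15 min.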

[3] = target: Endonuclease 4 (Escherichia coli (strain K12)) (UniProt P0A6C1); test: Counterscreen for APE1 Inhibitors: qHTS Validation Assay for Inhibitors of Endonuclease IV (AID 1708); further: on the % scale 0 is the no-effect control and ±100 the full control effect; details: E. coli endonuclease IV, DNA cleavage fluorescence; at 57.1 µM (top of the series)
How it was run: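 Incision of a double-stranded 50 nM TAMRA/BHQ-2 abasic substrate was followed kinetically (525/598 nm, reads every 60 s) after 15 min enzyme–compound preincubation with 2 nM EndoIV in pH 7.5 Tris buffer with MgCl2, DTT and Tween-20; concentration-response format.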

[4] = target: DNA polymerase III PolC-type (Bacillus subtilis (strain 168)) (UniProt P13267); test: qHTS Validation Assay for the Inhibitors of DNA Replication in Gram-Positive Bacteria (AID 485295); details: Gram-positive bacterial DNA replication assay; at 57.1 µM (top of the series);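 further: PicoGreen fluorescence of double-stranded DNA made on primed circular M13 template; 0% = DMSO wells and -100% = EDTA-quenched background wells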
How it was run: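 Reconstituted B. subtilis holoenzyme (Pol III, beta clamp, SSB, primase) was preincubated with compound at room temperature, then given single-stranded circular M13Gori plus dNTPs and NTPs. EDTA-containing PicoGreen stopped the reaction, and dsDNA product was read by fluorescence.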

[5] = target: Tumor susceptibility gene 101 protein (Homo sapiens) (UniProt Q99816); test: qHTS Validation Assay for Iinhibitors of HIV-1 Budding by Blocking the Interaction of PTAP/TSG101 (AID 485342; calls by dose curve; further: 0% is about no effect); details: TSG101-PTAP binding, fluorescence polarization, 4-point titration; at 115 µM (top of the series)
How it was run: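 Tsg101 binding domain (10 uM final) in pH 7.5 HEPES/NaCl/Tween 20/EDTA/TCEP buffer was mixed with pin-transferred compounds, then FITC-labeled PTAP peptide (50 nM final) was added; after 20 min at r.t., fluorescence polarization was read.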

[6] = Quantitative high throughput screen for delayed death inhibitors of the malarial parasite plastid, 48 hour incubation (AID 488752); details: Plasmodium falciparum growth; at 28.7 µM (top of the series); further: on the % scale 0 is the no-effect control and ±100 the full control effect; nearly all actives have a fitted effect of over 65% in size
How it was run: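 One-generation (48 h) growth assay: a decrease in luciferase signal from an integrated reporter in P. falciparum-infected red cells (0.1% parasitemia, 2% hematocrit) after compound exposure at 37 C indicates parasite inhibition.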

[7] = target: Phosphoglycerate kinase, glycosomal (Trypanosoma brucei brucei) (UniProt P07378); test: qHTS Validation Assay to Find Inhibitors of Phosphoglycerate Kinase (AID 504547); details: enzymatic PGK inhibition, coupled luminescence read-out; at 57.5 µM (top of the series);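 further: control wells lack PGK and mark full inhibition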
How it was run: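 Luminescence end-point (Kinase-Glo Plus, 10 min) after a 60 min room-temperature coupled reaction. GAPDH at 100nM final supplies 1,3-BPG to PGK. Buffer: 100mM TEA pH 7.6, 5mM MgCl2, 0.01% Tween-20. Wells lacking PGK served as controls.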

[8] = qHTS of Trypanosoma Brucei Inhibitors: LOPAC Validation (AID 624147); details: Trypanosoma brucei growth inhibition; at 57.5 µM (top of the series); further: 0% is about no effect
How it was run: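 Luminescent Kinase-Glo Plus end-point after 45 min room-temperature reaction of T. brucei pyruvate kinase started with 130 uM ADP (final). Buffer TEA 50 mM pH 7.2 with KCl, MgCl2, BSA, Tween-20; titration-based qHTS with fitted concentration-effect curves.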

[9] = qHTS assay for measurement of the activity of small molecule inhibitors on Zika virus induced Caspase-3 activity in human iPSC derived neural progenitor cells (hNPCs) (AID 1224857); details: hNPCs ZIKV-induced caspase-3/7, Caspase-Glo luminescence, 6 h; at 45.7 µM (top of the series) unless noted; further: % of control where 0% means no effect; nearly all actives have a fitted effect of over 65% in size
[10] = qHTS assay for measurement of the activity of small molecule inhibitors on Zika virus induced Caspase-3 activity in human astrocytoma cells (AID 1224859); details: SNB-19 ZIKV-induced caspase-3/7, luminescence, 6 h; at 45.7 µM (top of the series) unless noted;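 further: plate controls were ZIKV-infected untreated cells for no effect and uninfected cells for full effect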
[11] = NS1 protein of Zika virus - qHTS assay to identify small molecule inhibitors in human HEK 293 cells (AID 1347053); details: HEK293 ZIKV MR766 infection, NS1 TR-FRET, 24 h; at 46.1 µM (top of the series) unless noted;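 further: plate controls were infected untreated cells for no effect and uninfected cells for full effect; nearly all actives have a fitted effect of over 55% in size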
[12] = qHTS for Inhibitors of the Functional Ribonucleoprotein Complex (vRNP) of Lassa (LASV) Arenavirus: LASV Primary Screen - GLuc reporter signal (AID 1347082; calls by dose curve; tested in HEK293 reporter line; further: on the % scale 0 is the no-effect control and ±100 the full control effect; nearly all actives have a fitted effect of over 60% in size); details: LASV minigenome vRNP, Gaussia luciferase reporter; at 57.5 µM (top of the series) unless noted
[13] = qHTS for Inhibitors of the Functional Ribonucleoprotein Complex (vRNP) of Lassa (LASV) Arenavirus: Viability assay - alamar blue signal for LASV Primary Screen (AID 1347083; calls by dose curve; tested in HEK293 reporter line; further: on the % scale 0 is the no-effect control and ±100 the full control effect; nearly all actives have a fitted effect of over 80% in size); details: cell viability, alamar blue fluorescence (LASV minigenome counter-screen); at 57.5 µM (top of the series) unless noted
[14] = qHTS for Inhibitors of the Functional Ribonucleoprotein Complex (vRNP) of Lymphocytic Choriomeningitis Arenaviruses (LCMV): Viability assay - alamar blue signal for LCMV Primary Screen (AID 1347085; calls by dose curve; tested in HEK293 reporter line; further: on the % scale 0 is the no-effect control and ±100 the full control effect; nearly all actives have a fitted effect of over 80% in size); details: alamar blue viability counter-screen, LCMV vRNP screen cells; at 57.5 µM (top of the series) unless noted
[15] = target: Nucleoprotein (Lymphocytic choriomeningitis virus (strain Armstrong)) (UniProt P09992); test: qHTS for Inhibitors of the Functional Ribonucleoprotein Complex (vRNP) of Lymphocytic Choriomeningitis Arenaviruses (LCMV): LCMV Primary Screen - GLuc reporter signal (AID 1347086; calls by dose curve; further: on the % scale 0 is the no-effect control and ±100 the full control effect; nearly all actives have a fitted effect of over 70% in size); details: LCMV minigenome vRNP cell assay, Gaussia luciferase reporter; at 57.5 µM (top of the series) unless noted
[16] = system: Zika virus NS2B-NS3 protease (unlinked); test: Optimization of GU AMC qHTS for Zika virus inhibitors: Unlinked NS2B-NS3 protease assay (AID 1347151); details: recombinant ZIKV NS2B-NS3 protease, fluorogenic AMC substrate; at 52.5 µM (top of the series);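 further: 0% = no-inhibitor control and -100% = no-enzyme control; nearly all actives have a fitted effect of over 80% in size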
How it was run: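 Noncovalent complex of NS2B hydrophilic domain and NS3 protease domain, 25 nM final, in 10 mM Tris-HCl pH 8.0, 0.01% Tween 20. AMC fluorescence change over 15 min at room temperature was fitted to a 4-parameter Hill equation.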

[17] = system: Zika virus NS2B-NS3 protease; test: Primary screen GU AMC qHTS for Zika virus inhibitors (AID 1347154); details: Zika NS2B-NS3 unlinked protease, AMC fluorogenic substrate; at 54.1 µM (top of the series) unless noted;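 further: 0% = no-inhibitor control and -100% = no-enzyme control; nearly all actives have a fitted effect of over 70% in size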
[18] = qHTS profiling of the MIPE4 collection as inhibitors of Plasmodium falciparum (3D7) proliferation (AID 743344; call rule not given here;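 further: scaled between DMSO vehicle wells and 0.29 µM artemisinin as full inhibition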); details: P. falciparum 3D7 in erythrocytes, SYBR Green DNA fluorescence, 72 h; at 28.5 µM (top of the series)
[19] = qHTS profiling of the MIPE4 collection as inhibitors of Plasmodium falciparum (DD2) proliferation (AID 743345; call rule not given here); details: P. falciparum Dd2 in erythrocytes, SYBR Green DNA, 72 h; at 28.5 µM (top of the series)
[20] = qHTS profiling of the MIPE4 collection as inhibitors of Plasmodium falciparum (DD2) proliferation (Rep 2) (AID 743346; call rule not given here); details: P. falciparum Dd2 in erythrocytes, SYBR Green DNA, 72 h; at 28.5 µM (top of the series)
[21] = qHTS profiling of the MIPE4 collection as inhibitors of Plasmodium falciparum (HB3) proliferation (AID 743347; call rule not given here;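 further: plate controls were DMSO vehicle wells for no effect and artemisinin wells for full effect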); details: P. falciparum HB3 in erythrocytes, SYBR Green DNA, 72 h; at 28.5 µM (top of the series)

CN(C(=O)Cc1ccc(Cl)c(Cl)c1)[C@H]1CCCC[C@H]1N1CCCC1
inactive: activity change, negative = inhibition [1] 20.4% | activity change, negative = inhibition [2] 55.8%

CN(C(=O)Cc1ccc(Cl)c(Cl)c1)[C@H]1CCCC[C@@H]1N1CCCC1
inactive: activity change, negative = inhibition [3] -3.05% and 17% | activity change, negative = inhibition [4] -0.279% and -1.72% | fluorescence change [5] -2.35% and -5.6% | activity change, negative = inhibition [6] -22.8% and -25.7% | activity, negative = inhibition [7] 7.05% and 6.93% | activity change, negative = inhibition [8] 9.14% and -3.71% | activity change, negative = inhibition [9] -6.44% and 1.14% | activity change, negative = inhibition [10] 8.79% and -1.22% | activity change, negative = inhibition [11] 3.47% and -4.03% | activity change, negative = inhibition [12] 8.43% and 10.6% | activity change, negative = reduced viability [13] 0.517% and 5.12% | activity change, negative = lower viability [14] 2.3% and -4.13% | activity change, negative = inhibition [15] -1.02% and -3.26% | activity change, negative = inhibition [16] -0.321% and 2.61% | activity change, negative = inhibition [17] 8.55% [middle of 6 runs]

O=C(O[C@H]1CN2CCC1CC2)C1NCc2ccccc2[C@@H]1c1ccccc1 (some centres undefined)
inactive: outcome [2]

CCn1c(=O)n([C@@H]2CCN(CC3CCCCCCC3)C[C@@H]2CO)c2ccccc21
inactive: activity change, negative = inhibition [9] 34.7% | activity change, negative = inhibition [10] 19.6% | activity change, negative = inhibition [11] -3.84% | activity change, negative = inhibition [12] -0.308% | activity change, negative = reduced viability [13] 0.683% | activity change, negative = lower viability [14] 11.9% | activity change, negative = inhibition [15] -2.57%
10.1%: growth, % of control [21]
23.7%: parasite growth, % of control (lower = inhibition) [20]
24.9%: parasite growth remaining, % of DMSO control (lower = more inhibition) [19]
9.33%: parasite growth, % of DMSO control [18]
